Literature values in article PMC9448872, “Ligand-bound integrin αvβ6 internalisation and trafficking” (Frontiers in Cell and Developmental Biology, 2022).

Sequences of proteins named here, by UniProt entry; tags and fusion partners are left off. Residues count along the entry.
UniProt P06756, 31-1048: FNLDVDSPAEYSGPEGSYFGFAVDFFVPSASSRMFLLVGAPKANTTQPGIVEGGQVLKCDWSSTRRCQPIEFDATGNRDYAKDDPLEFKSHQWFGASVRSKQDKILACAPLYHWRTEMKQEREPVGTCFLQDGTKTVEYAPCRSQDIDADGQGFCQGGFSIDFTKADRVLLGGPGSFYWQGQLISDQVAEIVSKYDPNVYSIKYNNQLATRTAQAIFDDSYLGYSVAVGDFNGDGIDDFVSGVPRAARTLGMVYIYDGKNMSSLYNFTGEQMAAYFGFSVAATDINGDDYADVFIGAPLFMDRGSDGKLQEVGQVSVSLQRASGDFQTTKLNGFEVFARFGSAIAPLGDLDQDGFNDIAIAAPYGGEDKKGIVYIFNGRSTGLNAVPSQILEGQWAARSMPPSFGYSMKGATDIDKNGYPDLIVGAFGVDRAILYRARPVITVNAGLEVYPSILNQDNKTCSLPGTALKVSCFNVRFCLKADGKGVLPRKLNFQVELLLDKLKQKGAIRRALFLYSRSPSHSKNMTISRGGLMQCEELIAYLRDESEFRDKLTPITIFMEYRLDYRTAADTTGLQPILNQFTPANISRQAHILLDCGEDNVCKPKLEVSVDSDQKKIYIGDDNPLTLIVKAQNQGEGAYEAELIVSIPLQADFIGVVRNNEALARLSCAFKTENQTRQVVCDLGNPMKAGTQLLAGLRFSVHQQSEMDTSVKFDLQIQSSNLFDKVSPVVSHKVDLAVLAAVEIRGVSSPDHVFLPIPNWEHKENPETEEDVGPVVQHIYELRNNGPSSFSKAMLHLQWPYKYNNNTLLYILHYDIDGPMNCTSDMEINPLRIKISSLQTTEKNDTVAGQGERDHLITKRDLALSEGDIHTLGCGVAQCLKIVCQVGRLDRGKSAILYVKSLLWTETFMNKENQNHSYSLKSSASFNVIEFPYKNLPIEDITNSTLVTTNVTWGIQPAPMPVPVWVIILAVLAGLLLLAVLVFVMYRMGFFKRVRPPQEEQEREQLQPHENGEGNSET

Target: αvβ6-specific 20-mer peptide (A20FMDV2) (Foot-and-mouth disease virus)
Conditions: cited from earlier work

For integrin αvβ6 (from UniProt P06756), the Kd is listed as 1.7 nM.
